In test [1] the target is HA of A(H1N1)pdm09 virus (A/Hong Kong/415742/2009) (influenza A virus A(H1N1)pdm09). The experiment in a line: cell-based or functional assay.
The target in test [2] is HA of A(H7N7) virus (A/Netherlands/219/2003) (influenza A virus A/Netherlands/219/2003 (H7N7)). The experiment in a line: cell-based or functional assay.

Molecule YGRKKRRQRRRCWGPCPTAFRQIGNCGRFRVRCCRIR (modifications not checked) [TAT-P1 dual-functional fusion peptide] came in with an IC50 (H1N1), plaque reduction assay in MDCK cells in test [1] of 0.67 µg/mL.

With CWGPCPTAFRQIGNCGRFRVRCCRIR (modifications not checked) [P1 peptide], the IC50 (H1N1), plaque reduction assay in MDCK cells in test [1] worked out at 1.6 µg/mL. In test [2], this molecule displayed an IC50 (H7N7), plaque reduction assay in MDCK cells of 1.56 µg/mL.
